From US20230357367A1 (GENERATE BIOMEDICINES, published 2023) come the findings set out here.

Assay [1] concerns the target WIV1 spike trimer (recombinant, in-house production) (WIV1 (bat SARS-like coronavirus)). Description: DELFIA, IgG titrated on coated spike trimer.
Assay [2] concerns the target T1, SARS-CoV-2 BA.2+P1162L spike trimer (recombinant, in-house production) (SARS-CoV-2). Description: SPR, Fab over anti-His-captured trimer, 25 C. For orientation: Surface plasmon resonance follows binding to a sensor surface in real time, without labels.
Assay [3] concerns the target T2, SARS-CoV-2 BQ.1.1 spike trimer (recombinant) (SARS-CoV-2). Description: SPR, Fab over anti-His-captured trimer, 25 C.
Assay [4] addresses T3, SARS-CoV-2 BA.4 spike trimer (recombinant) (SARS-CoV-2). Description: SPR, Fab over anti-His-captured trimer, 25 C.
The target of assay [5] is T4, SARS-CoV-2 XBB.1.5 spike trimer (recombinant) (SARS-CoV-2). The experiment in a line: SPR, Fab over anti-His-captured trimer, 25 C.
Assay [6] concerns the target T5, SARS-CoV-2 BA.5 spike trimer (recombinant) (SARS-CoV-2). Description: SPR, Fab over anti-His-captured trimer, 25 C.
For assay [7], the target named is T6, SARS-CoV-2 BA.2 (parent) spike trimer (recombinant, in-house production) (SARS-CoV-2). Description: SPR, Fab over anti-His-captured trimer, 25 C.
The target in assay [8] is T7, SARS-CoV-2 BA.2+P1162S spike trimer (recombinant, in-house production) (SARS-CoV-2). The experiment in a line: SPR, Fab over anti-His-captured trimer, 25 C.
Assay [9] has as its target T1, SARS-CoV-2 BA.2+P1162L spike trimer …. The experiment in a line: SPR, Fab over anti-His-captured trimer, 37 C.
Assay [10] addresses T2, SARS-CoV-2 BQ.1.1 spike trimer …. Description: SPR, Fab over anti-His-captured trimer, 37 C.
Assay [11] addresses T3, SARS-CoV-2 BA.4 spike trimer …. Description: SPR, Fab over anti-His-captured trimer, 37 C.
Assay [12] deals with T4, SARS-CoV-2 XBB.1.5 spike trimer …. Description: SPR, Fab over anti-His-captured trimer, 37 C.
Assay [13] addresses T5, SARS-CoV-2 BA.5 spike trimer …. The experiment in a line: SPR, Fab over anti-His-captured trimer, 37 C.
For assay [14], the target named is T6, SARS-CoV-2 BA.2 (parent) spike trimer …. Description: SPR, Fab over anti-His-captured trimer, 37 C.
For assay [15], the target named is T7, SARS-CoV-2 BA.2+P1162S spike trimer …. Description: SPR, Fab over anti-His-captured trimer, 37 C.

B1: Reference Antibody (antibody, V domains shown)
VH: EVQLVESGAEVKKPGESLKISCKGSGYTFTRYWIGWVRQMPGKGLEWMGIIYPGDSDTRYSPSFQGHVTISADKSISTAYLQWNSLKASDTAMYYCARLPQYCSNGVCQRWFDPWGQGTLVTVSS
VL: EIVLTQSPSSVSASVGDRVTITCRASQGISSWLAWYQQKPGKAPKLLIYAASSLQSGVPSRFSGSGSGTDFTLTISSLQPEDFATYYCQQGNSFPYTFGQGTNLEIK
The term EC50 denotes the midpoint of the concentration-response curve. On to B1, for which, in assay [1], the EC50 came out at 0.076 mg/L.

B2: Reference Antibody Fab (Fab, V domains shown)
VH: B1 VH
VL: B1 VL
Broadly, the Kd is a measure of binding affinity in units of concentration. For B2, the Kd in assay [2] stood at 0.113 µM; in assay [3], 0.022 µM; in [4] it was 0.019 µM; in [5] it was 0.0188 µM; in [6], 0.0156 µM; in assay [7] it was 0.0858 µM. The Kd in assay [8] was determined as 0.078 µM; in assay [9] it was 0.201 µM; in assay [10] it was 0.0437 µM; in [11], 0.0374 µM; in [12], 0.0398 µM; in assay [13], 0.0459 µM. The dissociation constant (Kd) in assay [14] turned out to be 0.146 µM; in assay [15], 0.15 µM.
